Test results from PMC5571287 (Antimicrobial Agents and Chemotherapy, 2017).

How the values were obtained:
RSV A2 [1] = test: CPE assay, RSV A2 in HEp-2 cells (resazurin); conditions: read-out: RSV A2 IC90, HEp-2, n = 3, added with virus infection, ALS-8112 24 h prior
RSV B WST = test: CPE assay, RSV B Washington in HEp-2 cells (resazurin)
RSV A2 [2] = test: RSV F protein cell-based ELISA in BEAS-2B cells, washout / nonwashout; parameters: species or system respiratory syncytial virus

O=C(NC1CC1)c1cc2c(s1)-c1ccccc1N(C(=O)c1ccc(NC(=O)c3cccnc3N3CCC4(CC3)COC4)cc1)CC2
IC90 (RSV A2 [1]): 60 nM
IC50 (RSV B WST; read-out: RSV B WST IC50, HEp-2, n = 3, added with virus infection, ALS-8112 24 h prior): > 1580 nM
IC90 (RSV B WST; read-out: RSV B WST IC90, HEp-2, n = 3, added with virus infection, ALS-8112 24 h prior): > 1580 nM
IC50 (RSV A2 [2]; read-out: IC50, F protein expressed on cell surfaces, 2 h exposure then 24-h washout before inoculation): 106 nM
IC50 (RSV A2 [2]; read-out: IC50, F protein expressed on cell surfaces, nonwashout (sustained presence of drug)): 3.17 nM
CC50 (HEp-2 cells): > 15800 nM

Where two headings read alike, the source gives them in different places.
